## Deep mutational scan of the Zika virus protease

The measurements come from Ni et al. 2025 (doi:10.1038/s41467-025-63602-z).

Protein: NS2B and the protease part of NS3 of Zika virus strain MR766. Positions count along the chain below; NS2B spans 2-131 and NS3 starts at 132.
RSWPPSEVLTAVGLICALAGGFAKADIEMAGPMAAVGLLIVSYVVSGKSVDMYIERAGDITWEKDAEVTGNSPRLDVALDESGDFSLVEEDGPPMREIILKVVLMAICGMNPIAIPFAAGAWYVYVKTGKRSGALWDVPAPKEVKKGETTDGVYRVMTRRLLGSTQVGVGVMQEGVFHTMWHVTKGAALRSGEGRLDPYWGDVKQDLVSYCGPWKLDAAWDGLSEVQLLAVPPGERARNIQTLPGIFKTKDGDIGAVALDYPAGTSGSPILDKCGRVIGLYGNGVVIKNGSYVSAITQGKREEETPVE

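Pools of virus carrying all single amino acid changes were selected for growth in Huh-7.5 cells. The effect is the change in frequency of a mutant, normalised to wild type, as a mean of three replicate libraries (two for positions 207-308). The study looked for pockets that tolerate few changes, as a guide for inhibitor design.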

Scale: log2 effect, wild type = 0; the lower, the more harmful to the virus. A change reads original residue, position, new residue. Position 1 still belongs to NS2A. In the paper, -1 or higher counts as tolerated. The region was split into three libraries (1-103, 104-206, 207-308). An asterisk is a stop codon; stop codons read about -7, near the floor of the assay. Values above 0 are not proof of better growth: six high scorers were tested one by one, five grew less well than wild type and one about as well.

mutation,log2 effect
R1M,-8.12
P5I,-5.87
S6W,-5.44
E7A,-3.46
V8L,0.31
A11Y,-5.91
V12F,-5.81
C16G,-5.18
C16N,-6.91
G20E,-3.68
A30Q,-2.56
P32E,-5.31
A34L,-6.45
A34V,-3.80
V36S,-1.26
G37P,-5.28
V45E,-4.64
D51C,-3.32
D51Q,-4.03
I54D,-5.44
V68I,-1.58
T69M,-5.76
N71D,-5.63
L79R,-5.92
D80I,-5.98
E81N,-5.96
D84Q,-5.92
G92L,-1.90
P94R,-2.64
I98R,-7.48
K101D,-5.83
V102C,0.13
V103G,-2.18
V103I,-0.24
L104T,-4.65
A106W,-3.32
G129M,-5.46
V138G,-7.17
P139Y,-4.97
P141D,-4.10
K145A,-1.50
K146*,-6.53
G147D,-4.69
E148*,-5.08
E148H,-3.63
E148V,-1.32
T149L,-6.27
T150C,-1.91
V156T,-6.74
T158K,-4.73
R159Y,-4.70
T165C,0.84
T165R,-0.85
Q166F,-4.76
V169H,-5.28
M172R,-7.22
E174W,-5.55
H178C,-4.98
V183Y,-4.84
T184L,-7.30
R190E,-5.30
R190Q,-4.90
S191M,-5.04
G192C,-2.53
G192M,-4.11
L196E,-5.03
D197I,-0.86
Y199C,-0.73
V203Y,-6.35
Q205R,-6.80
P213*,-8.91
W220D,-6.28
Q227N,-6.04
P232F,-4.39
P232G,-3.03
E235C,-2.49
E235S,-1.20
R236S,1.02
K248E,-4.87
D251C,-3.39
G252M,-2.73
I254L,-1.73
G255W,-6.61
V257N,-4.91
V257W,-4.30
A258R,-6.58
D260E,-5.50
P269*,-6.62
L271S,-5.73
K273D,-3.69
C274W,-2.88
V277Y,-4.23
L280K,-5.43
I296V,-4.37
E303*,-8.24
P306D,-4.12

A selection of 5 entries from above:

mutation	log2 effect
T150C	-1.91
D197I	-0.86
Y199C	-0.73
N71D	-5.63
E235S	-1.20